Consider 1 sequence from paper PMC5112231.

This data set has as its target T1, Lrp K36Ac (Salmonella Typhimurium 14028s) (UniProt A0A0F6AZA3).
T1 sequence (looked up): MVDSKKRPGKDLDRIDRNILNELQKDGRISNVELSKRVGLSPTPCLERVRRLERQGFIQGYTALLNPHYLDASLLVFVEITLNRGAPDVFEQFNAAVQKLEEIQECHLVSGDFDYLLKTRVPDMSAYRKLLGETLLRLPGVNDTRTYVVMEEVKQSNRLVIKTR
Put plainly: EMSA. The settings on record: K36 acetylated; EMSA: binding buffer 100 mM Tris-HCl pH 8, 375 mM NaCl, 25 mM MgCl2, 5 mM DTT; about 1 nmol DNA in 20 ul, 25 C, 20 min; recombinant protein; residues 1-164; label: 5'-FAM on both primers (6'-FAM in legends); probe letters rebuilt from the primers and the genome. Background: A gel shift assay detects complexes by their altered migration in electrophoresis.

The exact form of at least one protein or probe is not confirmed. A weaker result is weaker than the reference pair of the same experiment. Tags and fusion partners may be left off the protein sequences shown.

Take “ACACAGTGGAGCAATAATAAAGAATGAGACCTCCCTGTTGACTGGCTATTTTGCGTAAGAGTAATAAATATGTGGAATATCCATTTCGCACCAACAAAAAAGAAATTTCTGATTAAGTAAAAACAATATGGATTATACCTGGTCTGATTTCTCGGAAAAGTCTTGCGAAATGCGAATTATGGATAGCGGGTAGGATATTCTG (double strand) [fimZ promoter]”: the binding result is given as “binds more weakly”.
